# According to US20230391845A1, “GLP-1, GIP AND GLUCAGON RECEPTOR TRIPLE AGONISTS” (priority 2020, published 2023):
# Test: Maximal efficacy study in DIO mice, daily s.c. dose titration for up to 60 days (body weight, food intake)
# Type: in vivo, C57BL/6J male mice
# Settings: last day any mouse of the group received treatment before being removed from the study (body weight 22.5 g or less)
# Protocol: The purpose of this example is to assess the in vivo effect of selected triple agonists on pharmacodynamic parameters in diet-induced obese (DIO) mice. The animals were treated once daily via subcutaneous injection with a liquid formulation of the triple agonist to be tested to assess effects on body weight, foot intake, and glucose tolerance.
# C57BL/6J male mice were purchased from Jackson Laboratories at approximately 8 weeks of age. Mice were group housed and fed a high-fat, high-sugar diet from Research Diets (D12331). Mice were maintained on this diet for 12 weeks prior to initializing the pharmacology studies. Mice exceeding a measured body weight of 50 grams were considered diet-induced obese (DIO) and included in pharmacology studies. Mice were exposed to a controlled 12 h:12 h light:dark cycle at ambient room temperature (22° C.) with ab libitum access to food and water. Studies were approved by and performed according to the guidelines of the Institutional Animal Care and Use Committee of the University of Cincinnati.
# All compounds in the study were formulated in the following buffer: 50 mM phosphate; 70 mM sodium chloride; 0.05% Tween-80, pH 7.4. […]
# Body weight (BW) and food intake were measured immediately prior to dosing each day. The percent change in body was calculated individually for each mouse based on initial body weight prior to the first injection. […]
row,Compound,Last day of treatment
1,CC[C@H](C)[C@H](NC(=O)[C@H](CO)NC(=O)[C@H](Cc1ccc(O)cc1)NC(=O)[C@H](CC(=O)O)NC(=O)[C@H](CO)NC(=O)[C@@H](NC(=O)[C@H](Cc1ccccc1)NC(=O)[C@@H](NC(=O)CNC(=O)[C@H](Cc1c[nH]cn1)NC(=O)C(C)(C)NC(=O)[C@@H](N)Cc1c[nH]cn1)[C@@H](C)O)[C@@H](C)O)C(=O)N[C@@H](Cc1ccc(O)cc1)C(=O)N[C@@H](CC(C)C)C(=O)N[C@@H](CCC(=O)O)C(=O)N[C@@H](CCCCNC(=O)[C@@H](N)CCCCNC(=O)[C@@H](N)CCCCNC(=O)CC[C@H](NC(=O)CCCCCCCCCCCCCCCCCCC(=O)O)C(=O)O)C(=O)N[C@@H](CCCCN)C(=O)N[C@@H](C)C(=O)N[C@@H](C)C(=O)NC(C)(C)C(=O)N[C@@H](CCC(=O)O)C(=O)N[C@@H](Cc1ccccc1)C(=O)N[C@H](C(=O)N[C@@H](CCC(N)=O)C(=O)N[C@@H](Cc1c[nH]c2ccccc12)C(=O)N[C@@H](CC(C)C)C(=O)N[C@@H](CC(C)C)C(=O)N[C@@H](CCC(=O)O)C(=O)NCC(=O)NCC(=O)N1CCC[C@H]1C(=O)N[C@@H](CO)C(=O)N[C@@H](CO)C(=O)NCC(=O)N[C@@H](C)C(=O)N1CCC[C@H]1C(=O)N1CCC[C@H]1C(=O)N1CCC[C@H]1C(=O)N[C@@H](CO)C(N)=O)C(C)C [Compound No. 33] (H-H[Aib]HGTFTSDYSIYLEK([εLys-εLys-γGlu-C20 diacid])KAA[Aib]EFVQWLLEGGPSSGAPPPS-NH2),43
2,CC[C@H](C)[C@H](NC(=O)[C@H](CO)NC(=O)[C@H](Cc1ccc(O)cc1)NC(=O)[C@H](CC(=O)O)NC(=O)[C@H](CO)NC(=O)[C@@H](NC(=O)[C@H](Cc1ccccc1)NC(=O)[C@@H](NC(=O)CNC(=O)[C@H](Cc1c[nH]cn1)NC(=O)C(C)(C)NC(=O)[C@@H](N)Cc1c[nH]cn1)[C@@H](C)O)[C@@H](C)O)C(=O)N[C@@H](Cc1ccc(O)cc1)C(=O)N[C@@H](CC(C)C)C(=O)N[C@@H](CCC(=O)O)C(=O)N[C@@H](CCCCNC(=O)[C@@H](N)CCCCNC(=O)[C@@H](N)CCCCNC(=O)CC[C@H](NC(=O)CCCCCCCCCCCCCCCCCCC(=O)O)C(=O)O)C(=O)N[C@@H](CCCCN)C(=O)N[C@@H](Cc1ccc(O)cc1)C(=O)N[C@@H](C)C(=O)NC(C)(C)C(=O)N[C@@H](CCC(=O)O)C(=O)N[C@@H](Cc1ccccc1)C(=O)N[C@H](C(=O)N[C@@H](CCC(N)=O)C(=O)N[C@@H](Cc1c[nH]c2ccccc12)C(=O)N[C@@H](CC(C)C)C(=O)N[C@@H](CC(C)C)C(=O)N[C@@H](CCC(=O)O)C(=O)NCC(=O)NCC(=O)N1CCC[C@H]1C(=O)N[C@@H](CO)C(=O)N[C@@H](CO)C(=O)NCC(=O)N[C@@H](C)C(=O)N1CCC[C@H]1C(=O)N1CCC[C@H]1C(=O)N1CCC[C@H]1C(=O)N[C@@H](CO)C(N)=O)C(C)C [Compound No. 30] (H-H[Aib]HGTFTSDYSIYLEK([εLys-εLys-γGlu-C20 diacid])KYA[Aib]EFVQWLLEGGPSSGAPPPS-NH2; N-terminus assumed),37

# *1 amine or outer side, *2 acyl side, *3 side chain or, on linkers, in order; H or OH if unused. Where a SMILES comes first, the peptide text is derived from it. Side-chain parts run from the residue outwards. [ ]: non-standard residue; d: D form. The star is where a group is joined. C20 diacid = O=C(O)CCCCCCCCCCCCCCCCCCC(=O)*; γGlu = O=C(O)[C@H](CCC(=O)[*:2])N[*:1]; εLys = N[C@@H](CCCCN[*:1])C(=O)[*:2]; Aib = CC(C)(N)C(=O)O
